Patent US20050271676A1, “Inducing cellular immune responses to human immunodeficiency virus-1 using peptide and nucleic acid compositions” (Epimmune Inc., priority 1993, published 2005)

Biological target: HLA-A*3301 (Homo sapiens, UniProt P04439, A270S/D185E/E176V/E277Q/E87N/F33T/G231S/H175R/I121M/I218V/I322F/K168Q/K210R/L300P/L318F/M331R/P217A/Q86R/Q94H/R138Q/T323A/T345S/T97I/V358M/Y195H)
Test: purified HLA class I binding assay, A*3301
[1] = Table IX, HIV A03 super motif peptides, binding value, unit not given
[2] = HIV A03 supermotif peptides, Table IX, unit not given

| Sequence | A*3301 binding information [1] | A*3301 binding information [2] | other results |
| --- | --- | --- | --- |
| YLAWVPAIIK | 0.8800 | – | – |
| WMGYELIIPDK | 0.0006 | – | – |
| TVQCTIIGIK | – | 0.0017 | – |
| ASCDKCQLK | 0.0009 | – | – |
| TVQCTIIGIR | – | 0.0330 | – |
| DIQIKELQK | 0.0018 | – | – |
| QARYLAVER | – | 0.0320 | – |
| KLTEERWNK | – | – | A*3301 binding information (HIV A03 supermotif peptides, binding value, no unit given): 0.0006 |
| QMVIIQAISPR | – | 0.1000 | – |
| FTTPDKKIIQK | 0.0013 | – | – |
